Measured values as given in patent US20190184007A1, “AVOIDING NARCOLEPSY RISK IN INFLUENZA VACCINES” (priority 2013, published 2019).

Key:
[1] = target: HLA DQA1*0101:DQB1*0501; test: REVEAL class II binding assay (cell-free)
[2] = target: HLA DQA1*0102:DQB1*0602, P01920; test: REVEAL class II binding assay (cell-free)

## LILYDKEERRRRWRQ (modifications not checked) [Peptide #9 (Mutant of #3)]
[1]
  REVEAL 24 hours (% of positive control signal): 6.4
  Stability index: 2.9
[2]
  REVEAL 24 hours (% of positive control signal): 17.3
  Stability index: 14.7
